Results: patent publication US20200024330A1 (published 2020)

Key:
Assay in all cases: cell-based or functional assay
[1] = molecular target: HIV-1 93IN905 envelope protein (Env) on pseudotyped virus (HIV-1 isolate 93IN905)
[2] = molecular target: HIV-1 IAVI_C22 envelope protein (Env) on pseudotyped virus (HIV-1 isolate IAVI C22)
[3] = molecular target: HIV-1 92TH021 envelope protein (Env) on pseudotyped virus (HIV-1 isolate 92TH021)
[4] = molecular target: HIV-1 NL43 envelope protein (Env) on pseudotyped virus (HIV-1 NL43)
[5] = molecular target: HIV-1 94UG103 envelope protein (Env) on pseudotyped virus (HIV-1 isolate 94UG103)
[6] = molecular target: HIV-1 92BR020 envelope protein (Env) on pseudotyped virus (HIV-1 isolate 92BR020)
[7] = molecular target: HIV-1 Env of isolate 92BR020 (HIV-1)
[8] = molecular target: HIV-1 Env of isolate 94UG103 (HIV-1)
[9] = molecular target: HIV-1 Env of isolate MGRM-C-026 (HIV-1)
[10] = molecular target: HIV-1 94UG103 envelope protein (Env) on pseudovirus (HIV-1)
[11] = molecular target: HIV-1 92RW020 envelope protein (Env) on pseudovirus (HIV-1)
[12] = molecular target: HIV-1 93UG077 envelope protein (Env) on pseudovirus (HIV-1)
[13] = molecular target: HIV-1 92BR020 envelope protein (Env) on pseudovirus (HIV-1)
[14] = molecular target: HIV-1 APV-13 envelope protein (Env) on pseudovirus (HIV-1)
[15] = molecular target: HIV-1 APV-17 envelope protein (Env) on pseudovirus (HIV-1)
[16] = molecular target: HIV-1 93IN905 envelope protein (Env) on pseudovirus (HIV-1)
[17] = molecular target: HIV-1 IAVI-C18 envelope protein (Env) on pseudovirus (HIV-1)
[18] = molecular target: HIV-1 IAVI-C22 envelope protein (Env) on pseudovirus (HIV-1)
[19] = molecular target: HIV-1 IAVI-C3 envelope protein (Env) on pseudovirus (HIV-1)
[20] = molecular target: HIV-1 92UG024 envelope protein (Env) on pseudovirus (HIV-1)
[21] = molecular target: HIV-1 92UG005 envelope protein (Env) on pseudovirus (HIV-1)
[22] = molecular target: HIV-1 92TH021 envelope protein (Env) on pseudovirus (HIV-1)
[23] = molecular target: HIV-1 CMU02 envelope protein (Env) on pseudovirus (HIV-1)
[24] = molecular target: HIV-1 NL43 envelope protein (Env) on pseudovirus (HIV-1)
[25] = molecular target: aMLV envelope protein on pseudovirus
[26] = molecular target: HIV-1 Env of isolate MG RM-A-002 (HIV-1)
[27] = molecular target: HIV-1 Env of isolate MG RM-A-004 (pseudovirus) (HIV-1)
[28] = molecular target: HIV-1 Env of isolate MG RM-C-001 (HIV-1)
[29] = molecular target: HIV-1 Env of isolate MG RM-C-004 (HIV-1)
[30] = molecular target: HIV-1 Env of isolate MG RM-C-005 (HIV-1)
[31] = molecular target: HIV-1 Env of isolate MG RM-C-007 (HIV-1)
[32] = molecular target: HIV-1 Env of isolate MG RM-C-008 (HIV-1)
[33] = molecular target: HIV-1 Env of isolate MG RM-C-012 (HIV-1)
[34] = molecular target: HIV-1 Env of isolate MG RM-C-013 (HIV-1)
[35] = molecular target: HIV-1 Env of isolate MG RM-C-002 (HIV-1)

B1: 1456_P20 (PG20) (antibody, V domains shown)
VH: QVRLVQSGPEVKKPGSSVTVSCQASGGTFSSYAFTWVRQAPGQGLEWLGMVTPIFGEAKYSQRFEGRVTITADESTSTTSIELRGLTSEDTAIYYCARDRRAVPIATDNWLDPWGQGTLVTVSS
VL: DIQLTQSPSSLSASVGDRVSITCRASQTINNYLNWYQQTPGKAPKLLIYGASNLQNGVPSRFSGSGSGTDFTLTISSLQPEDFATYYCQQSFSTPRTFGQGTRLDIKR
[1]
  IC50, pseudovirus neutralization, 1 hour Virus/Ab Incubation: > 50 µg/mL
  IC50, pseudovirus neutralization, 18 hour Virus/Ab Incubation: 3.84 µg/mL
[2]
  IC50, pseudovirus neutralization, 1 hour Virus/Ab Incubation: > 50 µg/mL
  IC50, pseudovirus neutralization, 18 hour Virus/Ab Incubation: > 50 µg/mL
[3]
  IC50, pseudovirus neutralization, 1 hour Virus/Ab Incubation: > 50 µg/mL
  IC50, pseudovirus neutralization, 18 hour Virus/Ab Incubation: > 50 µg/mL
[4]
  IC50, pseudovirus neutralization, 1 hour Virus/Ab Incubation: 0.2 µg/mL
  IC50, pseudovirus neutralization, 18 hour Virus/Ab Incubation: 0.05 µg/mL
[5]
  IC50, pseudovirus neutralization, 1 hour Virus/Ab Incubation: > 50 µg/mL
  IC50, pseudovirus neutralization, 18 hour Virus/Ab Incubation: > 50 µg/mL
[6]
  IC50, pseudovirus neutralization, 1 hour Virus/Ab Incubation: > 50 µg/mL
  IC50, pseudovirus neutralization, 18 hour Virus/Ab Incubation: > 50 µg/mL

B2: PGT-122 (antibody, V domains shown)
VH: QVHLQESGPGLVKPSETLSLTCNVSGTLVRDNYWSWIRQPLGKQPEWIGYVHDSGDTNYNPSLKSRVHLSLDKSKNLVSLRLTGVTAADSAIYYCATTKHGRRIYGVVAFKEWFTYFYMDVWGKGTSVTVSS
VL: TFVSVAPGQTARITCGEESLGSRSVIWYQQRPGQAPSLIIYNNNDRPSGIPDRFSGSPGSTFGTTATLTITSVEAGDEADYYCHIWDSRRPTNWVFGEGTTLIVL
[7]
  Primary Neutralization Index (B cell culture well 4877_D15): 5.4
[8]
  Primary Neutralization Index (B cell culture well 4877_D15): 1.3
[9]
  Primary Neutralization Index (B cell culture well 4877_D15): 37.5

B3: 1456_P20 (PG20) (antibody, V domains shown)
VH: QVRLVQSGPEVKKPGSSVTVSCQASGGTFSSYAFTWVRQAPGQGLEWLGMVTPIFGEAKYSQRFEGRVTITADESTSTTSIELRGLTSEDTAIYYCARDRRAVPIATDNWLDPWGQGTLVTVSS
VL: DIQLTQSPSSLSASVGDRVSITCRASQTINNYLNWYQQTPGKAPKLLIYGASNLQNGVPSRFSGSGSGTDFTLTISSLQPEDFATYYCQQSFSTPRTFGQGTRLDIKR
[10]
  neutralization IC50: > 50 µg/mL
[11]
  neutralization IC50: > 50 µg/mL
[12]
  neutralization IC50: > 50 µg/mL
[13]
  neutralization IC50: > 50 µg/mL
[14]
  neutralization IC50: > 50 µg/mL
[15]
  neutralization IC50: > 50 µg/mL
[16]
  neutralization IC50: > 50 µg/mL
[17]
  neutralization IC50: > 50 µg/mL
[18]
  neutralization IC50: > 50 µg/mL
[19]
  neutralization IC50: > 50 µg/mL
[20]
  neutralization IC50: > 50 µg/mL
[21]
  neutralization IC50: > 50 µg/mL
[22]
  neutralization IC50: > 50 µg/mL
[23]
  neutralization IC50: > 50 µg/mL
[24]
  neutralization IC50: 0.188 µg/mL
[25]
  neutralization IC50: > 50 µg/mL

B4: 5114_A19 (PGT-128) (antibody, V domains shown)
VH: QPQLQESGPTLVEASETLSLTCAVSGDSTAACNSFWGWVRQPPGKGLEWVGSLSHCASYWNRGWTYHNPSLKSRLTLALDTPKNLVFLKLNSVTAADTATYYCARFGGEVLRYTDWPKPAWVDLWGRGTLVTVSS
VL: QSALTQPPSASGSPGQSITISCTGTSNNFVSWYQQHAGKAPKLVIYDVNKRPSGVPDRFSGSKSGNTASLTVSGLQTDDEAVYYCGSLVGNWDVIFGGGTKLTVL
[26]
  neutralization IC50: 0.149 µg/mL

B5: 5147_N06 (PGT-130) (antibody, V domains shown)
VH: QVQLQESGPGLVKPAETLSLTCSVSGESINTGHYYWGWVRQVPGKGLEWIGHIHYTTAVLHNPSLKSRLTIKIYTLRNQITLRLSNVTAADTAVYHCVRSGGDILYYYEWQKPHWFSPWGPGIHVTVSS
VL: QSALTQPPSASGSLGQSVTISCNGTSSDIGGWNFVSWYQQFPGRAPRLIIFEVNKRPSGVPGRFSGSKSGNSASLTVSGLQSDDEGQYFCSSLFGRWDVVFGGGTKLTVL
[26]
  neutralization IC50: 0.01 µg/mL

B6: 4993_K13 (PGT-141) (antibody, V domains shown)
VH: QVQLVQSGPEVKKPGSSVKVSCKASGNTFSKYDVHWVRQATGQGLEWVGWMSHEGDKTESAQRFKGRVTFTRDTSASTAYMELRGLTSDDTAIYYCTRGSKHRLRDYVLYDDYGLINYQEWNDYLEFLDVWGHGTAVTVSS
VL: DTVVTQSPLSLPVTPGEAASMSCSSTQSLRHSNGANYLAWYQHKPGQSPRLLIRLGSQRASGVPDRFSGSGSGTHFTLKISRVEAEDAAIYYCMQGLNRPWTFGKGTKLEIK
[27]
  IC50 (µg/mL), pseudovirus neutralization: 0.007 µg/mL

B7: 4980_N08 (PGT-143) (antibody, V domains shown)
VH: QVQLEQSGAEVKKPGSSVKVSCKASGNTFSKYDVHWVRQATGQGLEWVGWMSHEGDKTESAQRFKGRVTFTRDTSASTAYMELRGLTSDDTAIYYCTRGSKHRLRDYVLYDDYGLINYQEWNDYLEFLDVWGHGTAVTVSS
VL: DTVVTQSPLSLPVTPGEAASMSCTSTQSLRHSNGANYLAWYQHKPGQSPRLLIRLGSQRASGVPDRFSGSGSGTHFTLKISRVEPEDAAIYYCMQGLNRPWTFGKGTKLEIK
[27]
  IC50 (µg/mL), pseudovirus neutralization: 0.007 µg/mL

B8: PGT-141 (antibody, V domains shown)
VH: QVQLVQSGPEVKKPGSSVKVSCKASGNTFSKYDVHWVRQATGQGLEWVGWMSHEGDKTESAQRFKGRVTFTRDTSASTAYMELRGLTSDDTAIYYCTRGSKHRLRDYVLYDDYGLINYQEWNDYLEFLDVWGHGTAVTVSS
VL: DTVVTQSPLSLPVTPGEAASMSCSSTQSLRHSNGANYLAWYQHKPGQSPRLLIRLGSQRASGVPDRFSGSGSGTHFTLKISRVEAEDAAIYYCMQGLNRPWTFGKGTKLEIK
[28]
  neutralization IC50: > 50 µg/mL
[29]
  neutralization IC50: > 50 µg/mL
[30]
  neutralization IC50: 8.33 µg/mL
[31]
  neutralization IC50: > 50 µg/mL
[32]
  neutralization IC50: > 50 µg/mL
[33]
  neutralization IC50: > 50 µg/mL
[34]
  neutralization IC50: > 50 µg/mL

B9: PGT-143 (antibody, V domains shown)
VH: QVQLEQSGAEVKKPGSSVKVSCKASGNTFSKYDVHWVRQATGQGLEWVGWMSHEGDKTESAQRFKGRVTFTRDTSASTAYMELRGLTSDDTAIYYCTRGSKHRLRDYVLYDDYGLINYQEWNDYLEFLDVWGHGTAVTVSS
VL: DTVVTQSPLSLPVTPGEAASMSCTSTQSLRHSNGANYLAWYQHKPGQSPRLLIRLGSQRASGVPDRFSGSGSGTHFTLKISRVEPEDAAIYYCMQGLNRPWTFGKGTKLEIK
[28]
  neutralization IC50: > 50 µg/mL
[29]
  neutralization IC50: > 50 µg/mL
[31]
  neutralization IC50: > 50 µg/mL
[32]
  neutralization IC50: > 50 µg/mL
[33]
  neutralization IC50: > 50 µg/mL
[34]
  neutralization IC50: > 50 µg/mL

B10: PGT-144 (antibody, V domains shown)
VH: QVQLVQSGAEVKKPGSSVKVSCKASGNTFRKYDVHWVRQATGQGLEWVGWMSHEGDKTESAQRFKGRVSFTRDNSASTAYIELRGLTSDDTAIYYCTGGSKHRLRDYVLYDDYGLINQQEWNDYLEFLDVWGHGTAVTVSS
VL: DTVVTQSPLSLSVTPGEAASMSCTSTQSLRHSNGANYLAWYQHKPGQSPRLLIRLGSQRASGVPDRFSGSGSGTHFTLKISRVEADDAAIYYCMQGLNRPWTFGKGTKLEIK
[28]
  neutralization IC50: > 50 µg/mL
[35]
  neutralization IC50: > 50 µg/mL
[29]
  neutralization IC50: > 50 µg/mL
[30]
  neutralization IC50: > 50 µg/mL
[31]
  neutralization IC50: > 50 µg/mL
[32]
  neutralization IC50: > 50 µg/mL
[33]
  neutralization IC50: > 50 µg/mL
[34]
  neutralization IC50: > 50 µg/mL
